Values quoted from earlier work in paper PMC12800406.

Molecular target: SARS-CoV-2 spike target of the cited XN-268s work (exact construct not stated) (SARS-CoV-2?) (UniProt P0DTC2)
Conditions: BLI ([…], pH 7.4, 0.2% BSA, 0.05% Tween 20, 25 C; cited from earlier work

## CACGCATAACCGAGCTGGGGTGGGGTAGTGGTATGGAGCGTCAGTTGTTATGCGTG [XN-268s]
  Kd: 4.26 nM
